The values below come from patent US6767895B2 (priority 2000, dated 2004).

In the assay the test system is motor nerve of a cutaneus pectoris muscle of frog. Briefly: Skeletal neuromuscular junction: extracellular recording, frog cutaneus pectoris muscle with motor nerve stimulation. The settings on record: peptide 1 μM; motor nerve electrically stimulated every minute.

For “Xaa2-Cys-Lys-Thr-Asn-Lys-Met-Ser-Cys-Ser-Leu-His-Xaa1-Xaa1-Cys-Cys-Arg-Phe-Arg-Cys-Cys-Phe-His-Gly-Lys-Cys-Gln-Thr-Ser-Val-Phe-Gly-Cys-Xaa4-Val-Asp-Xaa3”, the “effect on motor nerve / neuromuscular junction (extracellular recording)” value is listed as “produces repetitive action potentials in motor nerve”.
